This note sets out measurements from patent US8012970B2, “Derivatives of 1-{[1,5-bis(4-chlorophenyl)-2-methyl-1H-pyrrol-3-yl]methyl}-4-methylpiperazine, synthesis process and uses thereof” (priority 2005, dated 2011).

This data set relates to M. tuberculosis 103471. In words: Antimycobacterial activity, MIC in Middlebrook 7H9 broth (NCCLS procedure). It is filed as cell-based. The conditions noted are these: MNTD50/MIC ratio, VERO cells vs M. tuberculosis 103471.

With `Cc1c(CN2CCSCC2)cc(-c2ccc(F)cc2)n1-c1ccccc1F` [Compound 7c, N-(o-fluorophenyl)-2-methyl-3-thiomorpholinomethyl-5-(p-fluorophenyl)pyrrole], the “Protection Index (PI)” value is listed as 16.
